Results of unrelated studies side by side (data: NIAID ChemDB).

Shared fields: tests in culture; organism: Candida albicans; endpoint: MIC

a–b is a range or a potency band. An empty or dashed field is not shown. Rows are shuffled and stem from different studies.

smiles	strain or isolate	result
CCCCCCCOC(=O)C(N)Cc1ccc(OC)cc1	-	500 µg/mL
CN(C)CCCNC(=O)c1cc(NC(=O)c2cc(NC(=O)c3cc(NC(=O)c4nsc(NCCCN(C)C)c4Cl)cn3C)cn2C)cn1C	38247	32 µg/mL
CCOC(=O)c1csc(NC(=O)CSc2nnc(C(C)Oc3ccccc3)n2C2CCCCC2)n1	Clinical isolates	16 µg/mL
CCCCCCOC(=O)C(N)Cc1cc(I)c(OC)c(I)c1	-	1000 µg/mL
CSc1nc2ccccc2c(=O)n1/N=C1\C(=O)N(CN2CCCCC2)c2ccc(Br)cc21	-	78.12 µg/mL
Cn1ncc(C#N)c1/N=c1\ssnc1Cl	ATCC 10231	50 µg/mL
CCCCS/C(N)=N/NC(=O)c1ccccc1	-	>100 µg/mL
CCOC(=O)c1cc(-c2ccc(OC)cc2)n(CCn2c([N+](=O)[O-])cnc2C)c1C	-	>1024 µg/mL
CCOC(=O)c1csc(NC(=O)CSc2nnc(C(C)Oc3ccccc3)n2-c2ccccc2)n1	NRRL Y-27077	>16 µg/mL
C=CCS/C(N)=N/NC(=O)c1ccc(C)cc1	-	>100 µg/mL
NCCCCC(N)C(=O)NCCCCC(N)C(=O)O	-	54 µg/mL
CC(=O)On1cn[n+](C[C@](O)(c2ccc(F)cc2F)[C@@H](C)N2CCN(c3ccc(-n4cnnn4)cc3)C2=O)c1	TA	0.06 µg/mL
CN1CCc2c(sc(/N=c3\ssnc3Cl)c2C#N)C1	ATCC 10231	100 µg/mL
CCCCOC(=O)/C=C/c1ccccc1	-	0.002 µg/mL
CCCCCCCCCCCOC(=O)C(N)Cc1ccc(OC)cc1	-	1000 µg/mL
C/C(=N\NC(=S)Nc1cccc(Cl)c1)c1c(O)ccc2c(C)cc(=O)oc12	-	10 µg/mL
CC(=O)NCCOC(=O)On1cn[n+](C[C@](O)(c2ccc(F)cc2F)[C@@H](C)N2CCN(c3ccc(-n4cnnn4)cc3)C2=O)c1	TA	0.06 µg/mL
CSc1nc2ccccc2c(=O)n1/N=C1\C(=O)N(CN(C)C)c2ccc(Br)cc21	-	156 µg/mL
CC(=O)c1ccc2c(c1O)C=CC(C)(CO)O2	-	50 µg/mL
Cn1cc(NC(=O)c2cc(NC(=O)c3cc(NC(=O)c4nsc(NCCNc5ncccn5)c4Cl)cn3C)cn2C)cc1C(=O)NCCN1CCOCC1	38247	>32 µg/mL
Cc1ccc(C(=O)N/N=C(\N)SCc2cccc(Cl)c2)cc1	-	>100 µg/mL
Cc1ccc(O)c(C(C)C)c1	HITM 22	1 µg/mL
CN(C)CCCCNC(=O)c1cc(NC(=O)c2cc(NC(=O)c3cc(NC(=O)c4nsc(NCCN5CCNCC5)c4Cl)cn3C)cn2C)cn1C	38247	4 µg/mL
O=C1C(Br)=C(NBr)C(=O)c2ccccc21	-	25 µg/mL
CCCCc1ccc(C(=O)Oc2c(OC)cc3ccnc4c3c2N(C)C=C4)cc1	-	5 µg/mL
CSc1nc2ccccc2c(=O)n1/N=C1\C(=O)N(CN2CCOCC2)c2ccc(Br)cc21	-	78.12 µg/mL
Cc1ccc(NC2=C(O)c3ccccc3C(=O)C2=O)cc1	-	100 µg/mL
Clc1ccc(COC(Cn2ccnc2)c2ccc(Cl)cc2Cl)c(Cl)c1	ATCC28838	6.25 µg/mL
CS/C(N)=N/NC(=O)c1ccc(Cl)cc1Cl	-	>100 µg/mL
CNC1=CC(=O)c2ccccc2C1=O	-	6.3 µg/mL
COc1cc(C(=O)N/N=C(\N)SCc2cccc(Cl)c2)cc(OC)c1OC	-	>100 µg/mL
CC(=CCC/C=C(\C)CCC=C(C)CCC[N+](C)(C)[O-])CC/C=C(\C)CCC1OC1(C)C	ATCC 10231	120 µM
c1ccc2c(c1)nc1ncc3c(n12)CCCCCC3	-	25 µg/mL
CCCCCCCCCCOC(=O)C(N)Cc1ccc(OC)cc1	-	250 µg/mL
O=C1C(Cl)=C(Nc2ncccn2)C(=O)c2ccccc21	-	50 µg/mL
CCOC(=O)c1cc(-c2ccc([N+](=O)[O-])cc2)n(CCn2c([N+](=O)[O-])cnc2C)c1C	-	>1024 µg/mL
N=C(N)c1ccc(OCCCCCOc2ccc(C(=N)N)cc2)cc1	ATCC 10231	100 µg/mL
COC(=O)/C=C/c1ccccc1	-	0.002 µg/mL
N=Nc1cccc(Nc2c(Cl)c(O)c3ccccc3c2O)c1	-	50 µg/mL
CCc1c(Cc2ccc(Cl)cc2)nc(SCCCN2C(=O)c3ccccc3C2=O)[nH]c1=O	ATCC 10231	100 µg/mL
NC(N)=NS(=O)(=O)c1ccc(NC2=C(Cl)C(=O)c3ccccc3C2=O)cc1	-	50 µg/mL
Cc1ccc(OC(C)c2n[nH]c(=S)n2-c2ccccc2)cc1	NRRL Y-27077	1 µg/mL
O=C1C(Cl)=C(Nc2ccc(S(=O)(=O)O)cc2)C(=O)c2ccccc21	-	100 µg/mL
CC(C)(C)c1ccc(CN(Cc2cccs2)n2ccnc2)cc1	-	67 µM
CCCCOC(=O)C(N)Cc1cc(I)c(OC)c(I)c1	-	500 µg/mL
C=C[C@@H]1C(=C)CC[C@H]2[C@H]1C[C@H]1OC(=O)[C@@]3(C)[C@@H](O)CC[C@@]2(C)[C@@]13O	-	8 µg/mL
N#Cc1cnn(CCc2ccccc2)c1/N=c1\ssnc1Cl	ATCC 10231	25 µg/mL
CNC1=C(Br)C(=O)c2ccccc2C1=O	-	6.3 µg/mL
COC(=O)Cc1csc(NC(=O)CSc2nnc(C(C)Oc3ccccc3)n2C2CCCCC2)n1	Clinical isolates	>16 µg/mL
N#Cc1cnn(Cc2ccccc2)c1/N=c1\ssnc1Cl	ATCC 10231	>100 µg/mL
NC(=S)NNC(=O)c1ccc(F)cc1	-	>100 µg/mL
CSc1nc2ccccc2c(=O)n1/N=C1\C(=O)Nc2ccccc21	-	156 µg/mL
Cc1ccc(OC(C)c2nnc(SCC(=O)Nc3nccs3)n2-c2ccccc2)cc1	NRRL Y-27077	16 µg/mL
c1nc2ncc3c(n2n1)CCCCCC3	-	25 µg/mL
CC(C)(C)c1cc(C(C)(C)C)c2nc(C(=O)NC(Cc3ccc(O)cc3)C(=O)O)oc2c1	ATCC 44859	>500 µM
CCCCCCOC(=O)C(N)Cc1ccccc1	-	500 µg/mL
N#Cc1cnn(-c2ccccc2)c1/N=c1\ssnc1Cl	ATCC 10231	50 µg/mL
CC(Oc1ccccc1)c1n[nH]c(=S)n1-c1ccccc1	NRRL Y-27077	16 µg/mL
Cc1c(Cc2ccc(Cl)cc2)[nH]c(=S)[nH]c1=O	ATCC 10231	100 µg/mL
COc1cc(O)c2c(c1)C(=O)c1c(cc3c(c1O)-c1c(cc(C)c(C(=O)NC(CO)C(=O)O)c1O)[C@H](OC1OC(C)C(N(C)C)C(OC4OCC(O)C(O)C4O)C1O)[C@H]3O)C2=O	ATCC 38247 (amphotericin B-resistant)	0.8 µg/mL
COc1cc(O)c2c(c1)C(=O)c1c(cc3c(c1O)-c1c(cc(C)c(C(=O)NC(CO)C(=O)O)c1O)[C@H](OC1OC(C)C(N(C)C)C(OC4OCC(O)C(O)C4O)C1O)[C@H]3O)C2=O	10 isolates	3.1–6.3 µg/mL
Cc1c(O)cccc1C(=O)N[C@@H](CSc1ccccc1)[C@H](O)CN1C[C@H]2CCCC[C@H]2C[C@H]1C(=O)NC(C)(C)C	I177A	64 µg/mL
C[C@@H](N1CCN(c2ccc(-n3cnnn3)cc2)C1=O)[C@](O)(C[n+]1cn(OC(=O)OC2COCOC2)cn1)c1ccc(F)cc1F	TA	0.06 µg/mL
CC(C)(C)c1cc(C(C)(C)C)c2oc(Cc3ccc(O)cc3)nc2c1	ATCC 44859	>500 µM
Cc1ccc(OC(C)c2n[nH]c(=S)n2C2CCCCC2)cc1	NRRL Y-27077	0.5 µg/mL
CC(C)OC(=O)/C=C/c1ccccc1	-	0.002 µg/mL
C=C1C(=O)OC2C3C4(OC4[C@H](O)[C@@]3(C)O)[C@@H](C)C[C@H](O)[C@@H]12	-	20 µg/mL
CCc1c(Cc2ccc(Cl)cc2)[nH]c(=S)[nH]c1=O	ATCC 10231	25 µg/mL
COc1cc2c(cc1OC)-c1cc3ccc(OC)c(OC)c3c[n+]1CC2	ATCC 10231	>500 µg/mL
CSc1nc2ccccc2c(=O)n1/N=C1\C(=O)N(CN2CCCCC2)c2ccc(Cl)cc21	-	156 µg/mL
CCc1ccc(C(=O)Oc2c(OC)cc3ccnc4c3c2N(C)C=C4)cc1	-	20 µg/mL
CSc1nc2ccccc2c(=O)n1/N=C1\C(=O)N(CN2CCCCC2)c2ccccc21	-	312.5 µg/mL
CCc1ccc(NC2=C(Br)C(=O)c3ccccc3C2=O)cc1	-	25 µg/mL